Results of unrelated studies side by side (data: NIAID ChemDB).

Common to all: whole-cell or culture tests; agent: Cytomegalovirus; read-out: EC50

Blank or dashed fields: not listed here. ECn is the concentration giving n% inhibition of infection, replication or growth. Conditions beyond the fields shown may differ between rows. Two numbers with a dash give a range or band.

SMILES	strain	method	cells	value
Nc1nc2c(nnn2C[C@H]2CC[C@@H](CO)C2)c(=O)[nH]1	AD169	cytopathic effect	HEL	>200 µg/mL
O=c1[nH]c(=O)n([C@H]2C[C@H](O)[C@@H](CO)O2)cc1C1CCCC1	DAVIS/AD169	plaque count	HEL	>1200 µM
C[C@H](Cn1cnc2c(N)ncnc21)OCP(=O)(O)O	AD169	cytopathic effect		>350 µM
Nc1nc(N)c2ncn(CC(CO)OCP(=O)(O)O)c2n1	DAVIS	cytopathic effect	HEL	20 µg/mL
C[C@H]1C[C@@H](n2cnc3c(N)ncnc32)[C@H](O)[C@@H]1O	AD169	cytopathic effect	HEL	>20 µg/mL
Nc1nc(N)c2nnn(C[C@H]3CC[C@@H](CO)C3)c2n1	AD169	cytopathic effect	HEL	>50 µg/mL
Nc1nc(OCCOCP(=O)(O)O)cc(=O)[nH]1		cytopathic effect	HEL	>50 µg/mL
C[C@@H]1CC[C@H]2[C@@H](C)C(=O)O[C@@H]3OC4(C)CC[C@@H]1[C@]32OO4	AD169	plaque count	HEL	>50 µg/mL
Nc1nc(Cl)c2ncn(C[C@H]3CC[C@@H](CO)C3)c2n1	DAVIS	cytopathic effect	HEL	>5 µg/mL
Nc1nc2c(ncn2C[C@]2(CO)C[C@H]2CO)c(=O)[nH]1				10–100 µM
OC[C@H]1O[C@@H](n2cnc3cc(Cl)c(Cl)cc32)[C@H](O)[C@@H]1O				8 µM
O=c1[nH]cnc2c1ncn2C[C@@H](CO)OCP(=O)(O)O	DAVIS	plaque count	HEL	70 µg/mL
O=c1[nH]c(=O)n([C@H]2C[C@H](O)[C@@H](CO)S2)cc1C1CC1	DAVIS/AD169	plaque count	HEL	>1500 µM
Nc1nc2c(ncn2CCC(CO)CO)c(=O)[nH]1				10–100 µM
Nc1ncnc2c1ncn2CCOCP(=O)(O)O	AD169	plaque count	HEL	20 µg/mL
Nc1ncnc2c1ncn2CCOCP(=O)(O)O	AD169	cytopathic effect		95 µM
Nc1ccn(C[C@@H](CO)OCP(=O)(O)O)c(=O)n1	AD169	cytopathic effect	HEL	0.02 µg/mL
C[C@H](COc1cc(N)nc(N)n1)OCP(=O)(O)O	AD169	cytopathic effect		>180 µM
O=c1[nH]cnc2c1ncn2CCOCP(=O)(O)O	DAVIS	plaque count	HEL	150 µg/mL
O=c1ccn([C@H]2C[C@H](O)[C@@H](CO)S2)c(=O)[nH]1	DAVIS/AD169	plaque count	HEL	>2000 µM
OC[C@H]1O[C@@H](n2c(Cl)nc3cc(Cl)c(Cl)cc32)[C@H](O)[C@@H]1O				0.2 µM
O=C([O-])CN(CCN(CC(=O)[O-])CC(=O)[O-])CCN(CC(=O)[O-])CC(=O)[O-].[Mg+2].[Na+].[Na+].[Na+]			HFF	140 µM
CCCc1cn([C@H]2C[C@H](O)[C@@H](CO)S2)c(=O)[nH]c1=O	DAVIS/AD169	plaque count	HEL	>1500 µM

A second listing of 3 rows from above:

SMILES | strain | method | cells | value
Nc1nc(N)c2nnn(C[C@H]3CC[C@@H](CO)C3)c2n1 | AD169 | cytopathic effect | HEL | >50 µg/mL
Nc1nc(OCCOCP(=O)(O)O)cc(=O)[nH]1 |  | cytopathic effect | HEL | >50 µg/mL
C[C@H](Cn1cnc2c(N)ncnc21)OCP(=O)(O)O | AD169 | cytopathic effect |  | >350 µM